First the molecules themselves.
B1: BD55-5333 (protein)
chain 1: QITLRESGPTLVKPTQTLTLTCTFSGFSLTTRGVGVAWVRQPPGKALEWLALLYWDDDTRYSPSLKSRVSVTKDTSKNQVVLTMTNMDPVDTGTYYCAHSSTPRASFDHWFDPWGQGTLVTVSS
chain 2: QSVLTQPPSVSEAPRQRVTISCSGSSSNIGHNPVTWYQQFPGEAPKLLMYYDDRLPSGVSDRFSGSRSGTSASLAISGLQSGDEADYYCATWDDRLNGLVFGGGTKLTVL
B2: BD55-5382 (protein)
chain 1: QLQLQESGPGLVKPSETLSLSCTVSGGSISSTNYYWAWIRQPPGKGLEWIGSFHFGQSIYYNPSLKSRITISVDTSKNQFSLKLRSVTAADTAVYFCASGVVVAAGFYYHYGMDVWGQGTTVTVSS
chain 2: AYELTQPPSVSVSPGQTARITCSGDSLPNQYTYWYQQRPGQAPVVVIYKDNERPSGIPERFSGSSSGTTVTLTISGVLAEDEADYYCLSSEISGTWVFGGGTKLTVL
B3: BD55-5384 (protein)
chain 1: QVQLVQSGAEVKKPGSSVKVSCKTSGGNFNNYAIYWVRQAPGQGLEWMGGIIPIFGTTNYAQNFQGRVTITADESTTTVYMDLSSLRSEDTAVYYCARDGSSPSYSGYDWLSPGWIDPWGQGTLVTVSS
chain 2: IVMTQSPDSLAVSLGERATINCKSSRSVLYSSNNKNHLAWYQHKPGQPPKLLIYWASTRKSGVPDRFSGSGSGTDFTLTISSLQAEDVAVYYCQQYYSPPLTFGGGTKVEIK
B4: BD55-5404 (protein)
chain 1: QVQLQQWGAGLLKPSEILSLTCAVNGGSFSGFCWSWIRQPPGKGLEWIGEVDHSGGTNYNPSLKSRVTISVDTSQNQFSLKLTSLTAADTAVYYCARGGPRPIYDMLTGDVDYYYYGMDVWGQGTTVTVSS
chain 2: QSALTQPASVSGSPGQSITISCTGTTSDVGGHDSLSWYQQHPGKAPKLIIYDVTKGPSGASDRFSGSKSGNTASLTISGLQAEDEADYYCSSYTSTRRVFGTGTKVTVL
B5: BD55-5380 (protein)
chain 1: EVQLVESGGGLEQPGRSLRLSCAASGFTFEDYAMHWVRQAPGKGLEWVAGINWNRGGIGYADSVKGRFTISRDNAKNSLYLLMNSLRLEDTALYYCAKDKDSSWPYRYFDLWGRGTLVTVSS
chain 2: QSVLTQPPSVSGAPGQRVTISCTGSSSNIGAGYDVHWYQQLPGTAPKPLIYDNTNRPSGVPDRFSGSKSGTSASLAITGLQAEDEADYYCQSYDSSLSGYVIFGGGTKLTVL
B6: BD55-5413 (protein)
chain 1: EVQLLESGGGLVQPGGSLRLSCAASGFTFSNFAMIWVRQAPGKGLEWVSRITGSGGDTYYADSVKGRFTISRDNSKNTLSLKMSSLRPEDTAVYYCAKEWAAAGYLVFDIWGLGTMVTVSS
chain 2: DIQMTQSPSSLSASVGDRVTIFCQASQDVSNYLNWYQQKPGKAPKLLIYDASNLETGVPSRFSGSGSGTDFTFTISSLQPEDIATYYCQQYDNVAPTFGGGTRVEIK

Human monoclonal antibodies against the spike receptor-binding domain (heavy:light variable regions). IC50 against pseudoviruses bearing the spike of naturally observed variants; lower = stronger; >10 µg/ml means not reached at the top dose. No active / inactive call. The stated detection limit is 0.0005 µg/ml; values near or below 0.001 µg/ml lie at the floor of the assay.

The text below walks through data of the supplement of paper PMC9931576.

In the first test the target is SARS-CoV-2 Omicron BA.1 spike pseudovirus. The test is described as follows: pseudovirus neutralization IC50; higher = weaker neutralization. Here is the method: (§1)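 Single-round VSV luciferase pseudovirus mixed with antibody dilutions for 1 h and put on Huh-7 cells for about a day; IC50 from the dose curve.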
Turning to B1, the “pseudovirus neutralization IC50” value was over 10 µg/mL.

As for B2, the “pseudovirus neutralization IC50” value is over 10 µg/mL.

As to B3, the “pseudovirus neutralization IC50” value was over 10 µg/mL.

On to B4, for which the “pseudovirus neutralization IC50” value came out at 1.52 µg/mL.

Turning to B5, the “pseudovirus neutralization IC50” value is over 10 µg/mL.

As for B6, the “pseudovirus neutralization IC50” value was over 10 µg/mL.

The next test deals with SARS-CoV-2 Omicron BA.2 spike pseudovirus. The description is as above. On the procedure: as §1
As to B1, the “pseudovirus neutralization IC50” value is over 10 µg/mL.

As for B2, the “pseudovirus neutralization IC50” value was over 10 µg/mL.

With B3, the “pseudovirus neutralization IC50” value is over 10 µg/mL.

Consider B4, for which the “pseudovirus neutralization IC50” value stood at 1.51 µg/mL.

In the case of B5, the “pseudovirus neutralization IC50” value was over 10 µg/mL.

For B6, the “pseudovirus neutralization IC50” value is over 10 µg/mL.

The next test addresses SARS-CoV-2 Omicron BA.2.75 spike pseudovirus. The test is described as above. Here is the method: as §1
Take B1: the “pseudovirus neutralization IC50” value was over 10 µg/mL.

Turning to B2, the “pseudovirus neutralization IC50” value was over 10 µg/mL.

Consider B3, for which the “pseudovirus neutralization IC50” value was over 10 µg/mL.

Turning to B4, the “pseudovirus neutralization IC50” value amounted to 1.55 µg/mL.

As for B5, the “pseudovirus neutralization IC50” value is over 10 µg/mL.

For the molecule B6, the “pseudovirus neutralization IC50” value is over 10 µg/mL.

In the next test the target is SARS-CoV-2 Omicron BA.5 spike pseudovirus. The description is as above. Here is the method: as §1
For B1, the “pseudovirus neutralization IC50” value was over 10 µg/mL.

B2: the “pseudovirus neutralization IC50” value is over 10 µg/mL.

As to B3, the “pseudovirus neutralization IC50” value is over 10 µg/mL.

On to B4, for which the “pseudovirus neutralization IC50” value is 1.49 µg/mL.

Take B5: the “pseudovirus neutralization IC50” value is over 10 µg/mL.

Turning to B6, the “pseudovirus neutralization IC50” value was over 10 µg/mL.

The target in another test is SARS-CoV-2 Omicron BQ.1.1 spike pseudovirus. Described as above. Here is the method: as §1
For B1, the “pseudovirus neutralization IC50” value is over 10 µg/mL.

On to B2, for which the “pseudovirus neutralization IC50” value is over 10 µg/mL.

On to B3, for which the “pseudovirus neutralization IC50” value is over 10 µg/mL.

Take B4: the “pseudovirus neutralization IC50” value turned out to be 1.68 µg/mL.

For B5, the “pseudovirus neutralization IC50” value was over 10 µg/mL.

B6: the “pseudovirus neutralization IC50” value is over 10 µg/mL.

A further test concerns the target SARS-CoV-2 Omicron XBB spike pseudovirus. Described as above. Here is the method: as §1
Consider B1, for which the “pseudovirus neutralization IC50” value is over 10 µg/mL.

Consider B2, for which the “pseudovirus neutralization IC50” value is over 10 µg/mL.

Regarding B3, the “pseudovirus neutralization IC50” value is over 10 µg/mL.

B4: the “pseudovirus neutralization IC50” value turned out to be 1.36 µg/mL.

Take B5: the “pseudovirus neutralization IC50” value was over 10 µg/mL.

Regarding B6, the “pseudovirus neutralization IC50” value is over 10 µg/mL.

In a further test the target is SARS-CoV-2 early D614G spike pseudovirus. The description is as above. On the procedure: as §1
For the molecule B1, the “pseudovirus neutralization IC50” value is 0.0369 µg/mL.

Regarding B2, the “pseudovirus neutralization IC50” value is 0.304 µg/mL.

As for B3, the “pseudovirus neutralization IC50” value was found to be 0.963 µg/mL.

B4: the “pseudovirus neutralization IC50” value is 1.49 µg/mL.

Turning to B5, the “pseudovirus neutralization IC50” value was found to be 0.0264 µg/mL.

Regarding B6, the “pseudovirus neutralization IC50” value is over 10 µg/mL.
